# PubChem BioAssay AID651644 (National Center for Advancing Translational Sciences (NCATS), 2012)
# Only a part is listed here, and it is no random draw. Some salts and complexes are drawn in separate pieces, as the source files them; their charges need not balance. The source made the active and inactive calls. Calls follow the shape of the dose curve; as a rule, active = well fitted falling curve with a large enough effect; inconclusive = small, poorly fitted or top-dose-only effect; inactive = no such curve, though single readings can be large or run the other way.
# Assay: qHTS Assay for Inhibitors of the HIV-1 protein Vpr; also: nearly all actives have a fitted effect of over 50% in size
# Details: S. pombe RE007 Vpr strain, BacTiter-Glo ATP luminescence, 24 h; at 92.2 µM (top of the series)
# % is scaled to controls: 0 for no effect and ±100 for the full control effect.
row,Structure (SMILES),"activity change, negative = less growth"
1,O=C(NCC1(N2CCCCC2)CCCCC1)c1ccc(Cl)s1,inactive: -18.3%
2,N#CC1(Nc2ccccc2)CCN(Cc2ccccc2)CC1,inactive: 20.3%
3,O=C1C(O)=C([N+](=O)[O-])C(=O)C(O)=C1[N+](=O)[O-],inactive: -22.7%
4,O=C(NCC1(N2CCCCC2)CCCCC1)c1ccc(=O)[nH]c1,inactive: -1.69%
5,CCCCn1nnnc1C(c1cccs1)N1CCC(n2c(=O)[nH]c3ccccc32)CC1 (configuration not stated),inactive: 0.43%
6,CCCCn1nnnc1C(CC)N1CCC(n2c(=O)[nH]c3ccccc32)CC1 (configuration not stated),inactive: -1.28%
7,O=C(NCC1(N2CCCCC2)CCCCC1)c1cccs1,inactive: -10.7%
8,COc1ccc(C(=O)NCC2(N3CCCCC3)CCCCC2)cc1,inactive: -8.33%
9,CCC(c1nnnn1C1CCCC1)N1CCC(n2c(=O)[nH]c3ccccc32)CC1 (configuration not stated),inactive: -2.12%
10,COc1ccc(C(=O)NCC2(N3CCCCC3)CCCCC2)c(OC)c1OC,inactive: 6.06%
11,CC(C)(C)OC(=O)N1CCC(N(C(=O)c2ccccc2)c2ccc(F)cc2)CC1,inactive: 4.11%
12,CSc1ccccc1C(=O)NCC1(N2CCCCC2)CCCCC1,inactive: -23.4%
13,Cc1cccc(NC2(C#N)CCN(Cc3ccccc3)CC2)c1,inactive: -5.91%
14,O=c1[nH]c2ccccc2n1C1CCN(C(c2ccccc2)c2nnnn2C2CCCCC2)CC1 (configuration not stated),inactive: -10.8%
15,O=c1[nH]c2ccccc2n1C1CCN(C(c2cccc3ccccc23)c2nnnn2C2CCCC2)CC1 (configuration not stated),inactive: 9.11%
16,COc1cc(C(=O)NCC2(N(C)C)CCCCC2)ccc1OC(F)F,inactive: 28.6%
17,CCOC(=O)N1CCC(Nc2cccc(C)c2)CC1,inactive: -3.32%
18,CCOc1ccc(C)cc1CN(CCCl)CCCl,inactive: -21.7%
19,CC(C)(C)n1nnnc1C(c1ccccc1)N1CCC(n2c(=O)[nH]c3ccccc32)CC1 (configuration not stated),inactive: -2.28%

row,Structure (SMILES),"activity change, negative = less growth"
1,O=C1CCN(Cc2ccccc2)CC1,inactive: -17.3%
2,O=C(NCC1(N2CCCCC2)CCCCC1)c1ccc(F)cc1,inactive: -4.12%
3,CCCCn1nnnc1C(c1cc2ccccc2o1)N1CCC(n2c(=O)[nH]c3ccccc32)CC1 (configuration not stated),inactive: 7.26%
4,O=P1(N(CCCl)CCCl)SCCCS1,inactive: 2.89%
5,CCCCOc1ccc(C(=O)NCC2(N3CCOCC3)CCCCC2)cc1,inactive: -1.83%
6,COc1ccc(NC2CCN(CCc3ccccc3)CC2)c(OC)c1,inactive: -4.76%
7,CCOC(=O)N1CCC(Nc2ccc(F)cc2)CC1,inactive: -4.05%
8,O=C(NCC1(N2CCCCC2)CCCCC1)c1cccc(C(F)(F)F)c1,inactive: -1.63%
9,O=[N+]([O-])c1cc([N+](=O)[O-])c(NCC2CCS(=O)(=O)C2)c([N+](=O)[O-])c1 (configuration not stated),inactive: -4.87%
10,CCCCn1nnnc1C(c1cccc2ccccc12)N1CCC(n2c(=O)[nH]c3ccccc32)CC1 (configuration not stated),inactive: 1.63%
11,CN1CCN(CCOC(=O)C(O)(c2ccccc2)c2ccccc2)CC1,inactive: 1.13%
12,COc1ccc(NC2CCN(C(=O)OC(C)(C)C)CC2)cc1,inactive: -13.9%
13,CC(C)c1ccc(C(=O)NCC2(N3CCOCC3)CCCCC2)cc1,inactive: -21.2%
14,COc1cc(C(=O)NCC2(N3CCCCC3)CCCCC2)ccc1OC(F)F,inactive: 1.19%
15,O=C(NCC1(N2CCOCC2)CCCCC1)c1cc(=O)[nH]c2ccccc12,inactive: 4.23%
16,CC(C)(C)n1nnnc1C(c1ccccc1OC(F)(F)F)N1CCC(n2c(=O)[nH]c3ccccc32)CC1 (configuration not stated),inactive: 5.47%
17,O=C(NCC1(N2CCCCC2)CCCCC1)c1ccc(OC(F)F)cc1,inactive: 25.7%
18,O=C(NCC1(N2CCCCC2)CCCCC1)c1cccc([N+](=O)[O-])c1,inactive: -4.08%
19,CSc1ccc(C(=O)NCC2(N3CCOCC3)CCCCC2)cc1,inactive: -1.25%

row,Structure (SMILES),"activity change, negative = less growth"
1,CCN1CCC(Nc2ccc(Cl)cc2)CC1,inactive: 12%
2,N#CC1(Nc2ccccc2)CCN(CCc2ccccc2)CC1,inactive: -7.38%
3,O=c1[nH]c2ccccc2n1C1CCN(C(c2ccccc2OC(F)(F)F)c2nnnn2C2CCCC2)CC1 (configuration not stated),inactive: 4.04%
4,O=C(NCC1(N2CCCCC2)CCCCC1)c1cncc(Br)c1,inactive: -2.33%
5,COc1ccc2c(c1O)-c1c(O)c(OC)cc3c1[C@H](C2)[N+](C)(C)CC3.O=[N+]([O-])c1cc([N+](=O)[O-])c([O-])c([N+](=O)[O-])c1[O-],inactive: -22.4%
6,CN1CCC(Nc2cccc(F)c2)CC1,inactive: 15%
7,O=C(OC1CN2CCC1CC2)c1ccc([N+](=O)[O-])cc1 (configuration not stated),inactive: 9.86%
8,Cc1ccc(C(=O)NCC2(N(C)C)CCCCC2)o1,inactive: -14.4%
9,CCCOc1ccc(C(=O)NCC2(N(C)C)CCCCC2)cc1OC,inactive: -1.98%
10,COc1ccc(C(c2nnnn2C2CCCC2)N2CCC(n3c(=O)[nH]c4ccccc43)CC2)cc1 (configuration not stated),inactive: -2.86%
11,COc1ccc(CN(CCCl)CCCl)cc1Cl,inactive: 4.1%
12,O=[N+]([O-])c1cc([N+](=O)[O-])c(OC2CCCCC2O)c([N+](=O)[O-])c1 (configuration not stated),inactive: -2.07%
13,CN(C)c1cccc(C(=O)NCC2(N3CCCCC3)CCCCC2)c1,inactive: -8.21%
14,CCCCn1nnnc1C(c1ccccc1OC(F)(F)F)N1CCC(n2c(=O)[nH]c3ccccc32)CC1 (configuration not stated),inactive: -9.63%
15,CC(C)c1ccc(NC2CCN(C(=O)OC(C)(C)C)CC2)cc1,inactive: 6.77%
16,CCCCn1nnnc1C(c1ccnc2ccccc12)N1CCC(n2c(=O)[nH]c3ccccc32)CC1 (configuration not stated),inactive: -1.24%
17,COc1cc(OC)c(C(=O)NCC2(N(C)C)CCCCC2)cc1OC,inactive: -6.46%
18,O=C(NCC1(N2CCOCC2)CCCCC1)c1cc(F)c(F)cc1Cl,inactive: -10.2%
19,CCC(c1nnnn1C(C)(C)C)N1CCC(n2c(=O)[nH]c3ccccc32)CC1 (configuration not stated),inactive: 9.89%
